Assay results as given in paper PMC4962631.
For at least one entry, the source does not settle the construct or the ends of the probe. Where cells or extracts were used, other partners may take part. For part of these data: Tags and fusion partners may be left off the protein sequences shown.

Experiments:
Assay in all cases: EMSA supershift
[1] = target: T1, Nrf2 (Mus musculus) (UniProt Q60795); details: OMV-treated BM-derived DC nuclear extract, 6 h, signal lost with anti-Nrf2, suppressed by excess (100-fold) cold probe; EMSA: 5 ug nuclear extract, 30 min, room temperature, Promega protocol, 5% polyacrylamide gel; salt and pH not given; protein in an extract; label: 32P (gamma-32P), unlabeled as cold competitor
T1 sequence (looked up, limits assumed): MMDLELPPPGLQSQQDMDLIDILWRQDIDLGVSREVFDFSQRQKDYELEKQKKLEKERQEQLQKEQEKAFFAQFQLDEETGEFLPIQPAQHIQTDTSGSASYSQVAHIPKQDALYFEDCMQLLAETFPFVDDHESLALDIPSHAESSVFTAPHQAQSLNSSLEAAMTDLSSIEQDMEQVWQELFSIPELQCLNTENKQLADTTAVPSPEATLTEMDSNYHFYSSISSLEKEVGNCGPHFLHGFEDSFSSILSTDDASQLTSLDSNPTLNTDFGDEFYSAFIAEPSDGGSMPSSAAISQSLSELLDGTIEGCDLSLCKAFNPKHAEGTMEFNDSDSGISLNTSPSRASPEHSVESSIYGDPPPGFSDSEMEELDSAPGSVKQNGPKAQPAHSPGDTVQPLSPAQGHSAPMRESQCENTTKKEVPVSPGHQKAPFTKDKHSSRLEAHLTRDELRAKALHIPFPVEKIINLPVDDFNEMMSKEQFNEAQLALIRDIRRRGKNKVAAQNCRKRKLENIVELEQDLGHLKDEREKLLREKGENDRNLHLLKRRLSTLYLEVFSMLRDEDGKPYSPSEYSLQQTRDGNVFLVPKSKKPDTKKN

[2] = system: c-Jun + c-Fos; details: OMV-treated BM-derived DC nuclear extract, 1 h, signal lost with anti-c-Jun and anti-c-Fos; EMSA: 5 ug nuclear extract, 30 min, room temperature, Promega protocol, 5% polyacrylamide gel; salt and pH not given; protein in an extract; label: 32P (gamma-32P)
[3] = system: NF-kB p65 + NF-kB p50; details: OMV-treated BM-derived DC nuclear extract, 1 h, anti-p65 and anti-p50 shift; EMSA: 5 ug nuclear extract, 30 min, room temperature, Promega protocol, 5% polyacrylamide gel; salt and pH not given; protein in an extract; label: 32P (gamma-32P)

## TGGGGAACCTGTGCTGAGTCACTGGAG (double strand) [Nrf2 probe]
[1]
  binding result: binds

## CGCTTGATGACTCAGCCGGAA (double strand) [AP-1 probe]
[2]
  binding result: binds

## AGTTGAGGGGACTTTCCCAGGC (double strand) [NF-kB probe]
[3]
  binding result: binds
